A mixed list of measured activities; the numbers were collected in NIAID ChemDB.

Common to all: tests in culture; organism: Mycobacterium tuberculosis

MIC bound comes from a single tested concentration. Rows are shuffled and stem from different studies. ECn: concentration that inhibits the pathogen or its effect by n%. MIC50, MIC90 and the like: level of inhibition, or share of isolates inhibited. Inhibition is in % at the dose shown (toxicity tests: loss of growth or viability). Two numbers with a dash give a range or band. An empty or dashed field is not shown.

structure,dose,cell line,changes,method,conditions,measure,strain,value
CCN(CC)CCCC(C)NC(=O)c1ccc(Cl)nc1,-,-,-,BACTEC,-,MIC,H37Rv,≥12.5 µg/mL
O=C1NC(=S)N/C1=C/c1cccc(OCc2ccccc2)c1,-,-,-,BACTEC,-,EC50,H37Rv,<6.25 µg/mL
CO[C@H]1/C=C/O[C@@]2(C)Oc3c(C)c(O)c4c(O)c(c(/C=N/N5CCN(C)CC5)c(O)c4c3C2=O)NC(=O)/C(C)=C\C=C\[C@H](C)[C@H](O)[C@@H](C)[C@@H](O)[C@@H](C)[C@H](OC(C)=O)[C@@H]1C,-,-,-,resazurin,-,MIC,H37Rv,0.04 µg/mL
C=C1C(=O)[C@@]23[C@H](O)C[C@@H]4[C@@](C)(COC(C)=O)CCC[C@@]4(C)[C@@H]2CC[C@@H]1[C@H]3O,-,-,-,resazurin / absorbance,-,MIC,H37Ra,25–50 µg/mL
CCOC(=O)C(C(=NNC(=O)OC)C(=O)Nc1ccc(C(C)=O)cc1)c1cnc2ccccc2n1,-,-,-,resazurin,-,MIC bound,H37Rv,>6.25 µg/mL
NNC(=O)CNc1ccc2ccccc2c1,1 µg/mL,-,-,-,-,inhibition,H37Rv,100%
O=C(CCC(F)(F)F)N1CCC(c2cccnc2C(F)(F)F)CC1,-,THP-1,-,fluorescence,-,EC50,H37Rv,1–10 µM
O=C(Nc1ccc(C(F)(F)F)cc1)c1cc(Cl)ccc1OS(=O)(=O)c1ccccc1,-,-,-,-,21 d,MIC,H37Rv,1 µM
CC1(C)CC(=O)C2=C(C1)N(Nc1ccccc1)C(N)=C(C#N)C2c1cc2cc(Cl)ccc2nc1Cl,-,-,-,agar,-,MIC,H37Rv,5 µg/mL
Cc1cc(C2CCCC2)nc2c(C3CCCC3)cccc12,6.25 µg/mL,-,-,-,-,inhibition,H37Rv,100%
CC(CC(=O)NN)Nc1ccc2ccccc2c1,10 µg/mL,-,-,-,-,inhibition,H37Rv,100%
COc1ccc2c(c1)[n+]([O-])c(/C(C)=N/NC(=O)c1ccccc1O)c(C)[n+]2[O-],-,-,-,-,-,MIC,CS-R,12.5 µg/mL
O=C1NC(=S)N/C1=C/c1ccc([N+](=O)[O-])cc1,-,-,-,BACTEC,-,EC50,H37Rv,<6.25 µg/mL
COC(=O)c1c(C2CCCC2)nc2ccccc2c1C1CCCC1,-,-,-,-,-,MIC,H37Rv,6.25 µg/mL
Nc1ccc(-c2nnc(CON=C(c3ccccc3)c3ccccc3)o2)cc1,12.5 µg/mL,-,-,-,-,inhibition,-,7–56%
C=C1C[C@@]23CC[C@@H]4[C@@](C)(COC(C)=O)CCC[C@@]4(C)[C@@H]2[C@H](O)C[C@@H]1C3,-,-,-,resazurin / absorbance,-,MIC,H37Ra,25–50 µg/mL
C/C(=N\OCc1nnc(N)o1)c1ccccc1,12.5 µg/mL,-,-,-,-,inhibition,-,7–56%
O=C(CCC(F)(F)F)N1CCC(c2cncc(Cl)c2)C1,-,THP-1,-,fluorescence,-,EC50,H37Rv,1–10 µM
Cc1nnc2sc(N/N=C/c3ccccc3)nn12,6.25 µg/mL,-,-,resazurin,-,inhibition,H37Rv,8%
O[C@]12C=C(Cc3cccc4cnccc34)[C@@H]3CCN(CCCC/C=C\CC1)C[C@@]31C[C@@H]3CCCCCCN3C12,-,-,-,-,-,MIC,H37Rv,6.4 µg/mL
CC(C)COC(=O)N1N=NC2C3OC(CC3=O)C21,-,-,-,BACTEC,-,MIC bound,H37Rv,>12.5 µg/mL
C/C(=C1\NC(=S)NC1=O)c1ccc(Cl)cc1,6.25 µg/mL,-,-,BACTEC,-,inhibition,H37Rv,0%
CCOC(=O)C(NC(=O)CC)(Nc1ccc(S(=O)(=O)Nc2onc(C)c2C)cc1)C(F)(F)F,-,-,-,BACTEC,-,MIC bound,H37Rv,>12.5 µg/mL
COC(=O)c1ccnc2ccccc12,6.25 µg/mL,-,-,-,-,inhibition,H37Rv,0%
NNC(=O)c1ccncc1,-,-,-,resazurin,-,MIC,H37Rv,0.047 µg/mL
CC(C)CN.CC(C)CNC(=S)S,-,-,-,BACTEC,-,MIC,H37Rv,≥12.5 µg/mL
c1ccc(Nc2nnc(CCON=C(c3ccccc3)c3ccccc3)o2)cc1,12.5 µg/mL,-,-,-,-,inhibition,-,7–56%
CO[C@H]1/C=C/O[C@@]2(C)Oc3c(C)c(O)c4c(O)c(c(/C=N/N5CCN(C)CC5)c(O)c4c3C2=O)NC(=O)/C(C)=C\C=C\[C@H](C)[C@H](O)[C@@H](C)[C@@H](O)[C@@H](C)[C@H](OC(C)=O)[C@@H]1C,-,-,-,resazurin,-,MIC,SIT54,3 µg/mL
C=C1C(=O)[C@]23[C@H](OC(C)=O)[C@H]1CC[C@H]2[C@@]1(C)[C@H](C[C@H]3OC(C)=O)C(C)(C)CC[C@H]1OC(C)=O,-,-,-,resazurin / absorbance,-,MIC,H37Rv,1.56–3.125 µg/mL
NNC(=O)C1=NN(c2ccccc2)C(=O)C1,-,-,-,BACTEC,-,MIC,H37Rv,≥12.5 µg/mL
CO/N=C1\CN(c2nc3c(cc2F)c(=O)c(C(=O)O)cn3C2CC2)CC1CN,-,-,-,-,-,MIC90,82 strains,>4 µg/mL
O=C(Nc1cccc(Cl)c1)c1ccc(Cl)cc1OS(=O)(=O)c1ccccc1,-,-,-,-,14 d,MIC,H37Rv,16 µM
Cc1nc(C(=O)OC2CC2)c(N)c2c1C(=O)N(Cc1ccccc1)C2=O,-,-,Ala317Thr,resazurin / visual reading,-,MIC90,H37Rv-MA,>10 µM
CO[C@H]1/C=C/O[C@@]2(C)Oc3c(C)c(O)c4c(O)c(c5c(c4c3C2=O)NC2(C[C@@H](c3ccc(F)cc3)N[C@@H](c3ccc(F)cc3)C2)N=5)=NC(=O)/C(C)=C\C=C\[C@H](C)[C@H](O)[C@@H](C)[C@H](O)[C@H](C)[C@H](OC(C)=O)[C@@H]1C,-,-,-,-,-,MIC,ATCC 35837 (ethambutol-resistant),0.02 µg/mL
COc1ccccc1[C@H](c1cc2cc(Br)ccc2cc1OC)[C@](O)(CCN(C)C)c1cccc2ccccc12,-,-,-,resazurin,-,MIC,H37Rv,1.999 µg/mL
CC(=O)NCCc1nc(-c2nc(C(=O)NCCC(C)C)cs2)cs1,12.8 µg/mL,-,-,BACTEC,-,inhibition,H37Rv,23%
O=C1NC(=S)N/C1=C/c1ccc2c(c1)OCO2,-,-,-,BACTEC,-,EC50,H37Rv,>6.25 µg/mL
O=C(Nc1cccc(C(F)(F)F)c1)c1ccc(Cl)cc1OS(=O)(=O)c1ccccc1,-,-,-,-,21 d,MIC,H37Rv,125 µM
C/C(=N\OCc1nnc(N2CCOCC2)o1)c1ccccc1,12.5 µg/mL,-,-,-,-,inhibition,-,7–56%
NC(=O)c1nnn2c1nc(N)c1cc(Cl)ccc12,12.5 µg/mL,-,-,BACTEC,-,inhibition,H37Rv,8%
O=C1NC(=S)N/C1=C/c1cccc(O)c1,6.25 µg/mL,-,-,BACTEC,-,inhibition,H37Rv,11%
C=C1C(=O)[C@]23C[C@H]1CC[C@H]2[C@]1(C)CCC[C@](C)(COC(C)=O)[C@H]1C[C@H]3O,-,-,-,resazurin / absorbance,-,MIC,H37Rv,12.5–25 µg/mL
C/C(=N\OCCc1nnc(-c2ccc(Cl)cc2)o1)c1ccccc1,12.5 µg/mL,-,-,-,-,inhibition,-,7–56%
O[C@]12C=C(Cc3nccc4ccccc34)[C@@H]3CCN(CCCC/C=C\CC1)C[C@@]31C[C@@H]3CCCCCCN3C12,-,-,-,-,-,MIC,H37Rv,7.6 µg/mL
Cc1ccc(S(=O)(=O)C(=S)N(C)N(C)C)cc1,-,-,-,-,-,MIC,ETA-R,12.8 µg/mL
NNC(=O)CNc1ccc2ccccc2c1,1 µg/mL,-,-,-,21 d,inhibition,H37Rv,100%
COc1cc2ccc(Br)cc2cc1[C@@H](c1ccc(Cl)cc1)[C@@](O)(CCN(C)C)c1ccccc1,-,-,-,resazurin,-,MIC,Clinical isolate,0.307 µg/mL
CC1(C)CC(=O)C2=C(C1)N(Nc1ccc(Cl)cc1)C(N)=C(C#N)C2c1cc2cc(Cl)ccc2nc1Cl,-,-,-,agar,-,MIC,H37Rv,87 µg/mL
COc1ccc(-c2ccc(Cc3ccc(-c4ccc(OC)cc4)o3)o2)cc1,12.5 µg/mL,-,-,BACTEC,-,inhibition,H37Rv,-33%
COc1ccc(C2CCN(C(=O)CCC(F)(F)F)CC2)cn1,-,THP-1,-,fluorescence,-,EC50,H37Rv,0.05–0.25 µM
CCCCNC(=S)SSSSC(=S)NCCCC,-,-,-,resazurin,-,MIC bound,H37Rv,<6.25 µg/mL
COc1ccc2nc(Cl)c(C3C(C#N)=C(N)N(Nc4ccc(C)cc4)C4=C3C(=O)CC(C)(C)C4)cc2c1,-,-,-,agar,-,MIC,H37Rv,50 µg/mL
COc1ccc(-c2nnc(CON=C(c3ccccc3)c3ccccc3)o2)cc1,12.5 µg/mL,-,-,-,-,inhibition,-,7–56%
COC(=O)c1cnc2ccccc2c1,6.25 µg/mL,-,-,-,-,inhibition,H37Rv,0%
O=C1NC(=S)N/C1=C/c1ccc(Cl)cc1Cl,6.25 µg/mL,-,-,BACTEC,-,inhibition,H37Rv,6%
O=C(O)Cc1cc(C2CCCCC2)nc2ccccc12,-,-,-,-,-,MIC,H37Rv,>6.25 µg/mL
CCC12OC(COc3ccccc3)CN1CCN2c1ccccc1,-,-,-,BACTEC,-,MIC bound,H37Rv,>12.5 µg/mL
O[C@]12C=C(Cc3cnccn3)[C@@H]3CCN(CCCC/C=C\CC1)C[C@@]31C[C@@H]3CCCCCCN3C12,-,-,-,-,-,MIC,H37Rv,15.5 µg/mL
O=C(Nc1ccc(C(F)(F)F)cc1)c1ccc(Cl)cc1OS(=O)(=O)c1ccccc1,-,-,-,-,21 d,MIC,H37Rv,4 µM
COc1cc2ccc(Br)cc2cc1[C@@H](c1ccc(Cl)cc1)[C@@](O)(CCN(C)C)c1ccccc1Br,-,-,-,resazurin,-,MIC,Clinical isolate,0.096 µg/mL
COc1ccc(/C=C2/NC(=S)NC2=O)cc1OC,-,-,-,BACTEC,-,EC50,H37Rv,>6.25 µg/mL
CC1(C)CC(=O)C2=C(C1)N(Nc1ccc(Cl)cc1)C(N)=C(C#N)C2c1cc2ccccc2nc1Cl,-,-,-,agar,-,MIC,H37Rv,22 µg/mL
O=C(Nc1cccc(F)c1)c1ccc(Cl)cc1OS(=O)(=O)c1ccccc1,-,-,-,-,21 d,MIC,H37Rv,16 µM
CCCCN1[C@@H](c2ccccc2)CC2(C[C@H]1c1ccccc1)N=c1c(c3c4c5c(C)c(O)c3c(O)c1=NC(=O)/C(C)=C\C=C\[C@H](C)[C@H](O)[C@@H](C)[C@H](O)[C@H](C)[C@H](OC(C)=O)[C@H](C)[C@@H](OC)/C=C/O[C@@](C)(O5)C4=O)N2,-,-,-,-,-,MIC,ATCC 35838 (rifampicin- rifabutin-resistant),1 µg/mL
CCN(CC)c1cc(C)c2nc3ccc(=[N+](CC)CC)cc-3sc2c1.[Cl-],12.5 µg/mL,-,-,BACTEC,-,inhibition,H37Rv,88%
NC1[C@H]2CN(c3nc4c(cc3F)c(=O)c(C(=O)O)cn4-c3ccc(F)cc3F)C[C@@H]12,-,-,-,-,-,MIC50,45 strains (drug-susceptible),>4 µg/mL
COC(=O)NC1C(=O)OC2C1CC1OC12,12.5 µg/mL,-,-,BACTEC,-,inhibition,H37Rv,18%
C/C(=N\OCCc1n[nH]c(=S)o1)c1ccccc1,12.5 µg/mL,-,-,-,-,inhibition,-,7–56%
NC(=O)c1c([N+](=O)[O-])ncn1[C@@H]1O[C@H](CO)[C@@H](O)[C@H]1O,12.5 µg/mL,-,-,BACTEC,-,inhibition,H37Rv,9%
Cc1noc(-c2nc(C)c3c(c2N)C(=O)N(Cc2cccc(Cl)c2)C3=O)n1,-,-,deltaCydKO,resazurin / visual reading,-,MIC90,H37Rv-MA,<0.019 µM
COc1ccc2nc(Cl)c(C3C(C#N)=C(N)N(Nc4ccc(Cl)cc4)C4=C3C(=O)CC(C)(C)C4)cc2c1,-,-,-,agar,-,MIC,H37Rv,21 µg/mL
O=C(O)c1cc(C2C3CC4CC(C3)CC2C4)nc2ccccc12,-,-,-,-,-,MIC,H37Rv,>6.25 µg/mL
Cn1c(=O)c2nc(-c3ccccc3)cnc2n(C)c1=O,12.5 µg/mL,-,-,BACTEC,-,inhibition,H37Rv,0%
O=C(O)c1cn(C2CC2)c2c(Cl)c(N3C[C@@H]4CCCN[C@@H]4C3)c(F)cc2c1=O,-,-,-,-,-,MIC90,Resistant,0.13 µg/mL
COc1c([C@@H](c2ccccc2)[C@@](O)(CCN(C)C)c2cccc3ccccc23)cc2cc(Br)ccc2c1Br,-,-,-,resazurin,-,MIC,Clinical isolate,0.085 µg/mL
O=C(CCCC(F)(F)F)N1CCC(c2cncc(Cl)c2)CC1,-,THP-1,-,fluorescence,-,EC50,H37Rv,0.05–0.25 µM
Cc1oc(NC(=O)C(=O)O)c(C#N)c1C,12.5 µg/mL,-,-,BACTEC,-,inhibition,H37Rv,-3%
C=CCOc1ccc(/C=C2/NC(=S)NC2=O)cc1,-,-,-,BACTEC,-,EC50,H37Rv,<6.25 µg/mL
CO[C@H]1/C=C/O[C@@]2(C)Oc3c(C)c(O)c4c(O)c(c5c(c4c3C2=O)NC2(C[C@@H](c3ccccc3)N[C@@H](c3ccccc3)C2)N=5)=NC(=O)/C(C)=C\C=C\[C@H](C)[C@H](O)[C@@H](C)[C@H](O)[C@H](C)[C@H](OC(C)=O)[C@@H]1C,-,-,-,-,-,MIC,ATCC 35822 (isoniazid-resistant),0.02 µg/mL
O=C(Nc1ccc(F)cc1)c1cc(Cl)ccc1OS(=O)(=O)c1ccccc1,-,-,-,-,21 d,MIC,H37Rv,8 µM
O=C1NC(=S)N/C1=C/c1cccc(Cl)c1Cl,-,-,-,BACTEC,-,EC50,H37Rv,>6.25 µg/mL
CC1(C)SSC(C)(C)SS1,12.5 µg/mL,-,-,BACTEC,-,inhibition,H37Rv,18%
CC1(C)CC(=O)C2=C(C1)N(Nc1ccc(F)cc1)C(N)=C(C#N)C2c1cc2cc(Cl)ccc2nc1Cl,-,-,-,agar,-,MIC,H37Rv,65 µg/mL